The test system of this test is L14 vaccinia virus (VV) in RM35 ADSCs. The format is cell-based.

Consider 1 substance from patent publication US11505782B2 (priority 2018, dated 2022).

Take IFNγ: the Average pfu/sample is 1.75 × 10^5 pfu/sample.
